This is an account of results in PubChem BioAssay AID449762 (Southern Research Specialized Biocontainment Screening …, 2010).

Inconclusive results are not listed.

The test has as its system M. tuberculosis H37Rv growth inhibition, 7H9 media. Nature of the test: M. tuberculosis growth inhibition, HTS (AID 449762).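 Note: bacterial growth assessed after seven days of incubation.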 As to conditions: measured here: IC90 growth inhibition.
One may read the IC90 as the concentration needed for an effect of 90%. Read a low IC90 as an effect from little substance. On to `CN(C)C(=O)c1cc([N+](=O)[O-])cc2c1-c1c(cc([N+](=O)[O-])cc1[N+](=O)[O-])C2=O`, for which the IC90 was found to be 9.56 µM. The same measure for `CC(=O)NC(SC(=S)N(C)C)C(Cl)(Cl)Cl` (stereo not drawn): 29.5 µM. `O=[N+]([O-])c1cc([N+](=O)[O-])c(CCNc2ccccc2)c([N+](=O)[O-])c1` returned an IC90 of 23.9 µM.
